Anti-infective test results gathered from many reports (values: NIAID ChemDB through PubChem).

All rows: growth or infection tests

ECn: concentration that inhibits the pathogen or its effect by n%.

Cc1cc(OCCCS(N)(=O)=O)ccc1NC(=O)COc1ccc(Cl)cc1C(=O)c1cc(F)cc(C(F)(F)F)c1 ; organism: HIV-1 ; strain or isolate: HXB2 ; changes: RT-K101E ; cell line: HeLa + HELA CD4+ ; read by: β-galactosidase ; read-out: fold resistance ; result: ~1
O=C(NCCc1ccccc1)Nc1nc2ccc(F)cc2s1 ; organism: HIV-2 ; cell line: MT-4 ; read by: cytopathic effect / XTT ; read-out: inhibition ; dose: 0.1 µg/mL ; result: 4%
CC(C)=CCOc1cc(NC(=S)c2ccoc2C)ccc1Cl ; organism: HIV-1 ; strain or isolate: NL4-3 ; changes: RT-V106I ; cell line: CEM + CEM-SS ; read by: p24 ; read-out: fold resistance ; result: 17
COc1ccc(S(=O)(=O)N(CC(C)C)C[C@@H](O)CCN(CC2CCCC2)S(=O)(=O)c2cc(C(C)(C)C)cc3[nH]cnc23)cc1 ; organism: HIV-1 ; strain or isolate: IIIB ; cell line: CEM ; read by: p24 ; read-out: EC90 ; result: 1 µM
O=C1Nc2ccc(Cl)cc2[C@@](C#CC2CC2)(C(F)(F)F)N1 ; organism: HIV-1 ; changes: RT-Y188L ; read-out: EC90 ; result: ~0.098 µM
CCOP(=O)(OCC)C(O)Cn1cc(-n2cc(C)c(=O)[nH]c2=O)nn1 ; organism: HIV-2 ; strain or isolate: ROD ; cell line: CEM ; read-out: inhibition ; dose: 100 µM ; result: 0%
COc1ccc(S(=O)(=O)N(CC[C@H](O)Cc2ccccc2C(=O)NC(C)(C)C)CC(C)C)cc1 ; organism: HIV-1 ; strain or isolate: IIIB ; cell line: CEM ; read by: p24 ; read-out: EC90 ; result: 1 µM
Cc1nc(NC(=O)NCCc2ccccc2)sc1C ; organism: HIV-2 ; cell line: MT-4 ; read by: RT activity ; read-out: inhibition ; dose: 100 µg/mL ; result: 93%
O=c1ccn(-c2cn(C(O)P(=O)(O)O)nn2)c(=O)[nH]1 ; organism: HIV-2 ; strain or isolate: ROD ; cell line: CEM ; read-out: inhibition ; dose: 100 µM ; result: 0%
CC(C)CN(CC(F)(F)C(=O)[C@H](Cc1ccccc1)NC(=O)O[C@H]1CCOC1)S(=O)(=O)c1ccccc1 ; organism: HIV-1 ; strain or isolate: IIIB ; cell line: CEM ; read by: p24 ; read-out: EC90 ; result: 1 µM
Nc1ncnc2c1ncn2Cc1cn(C(O)P(=O)(O)O)nn1 ; organism: HIV-2 ; strain or isolate: ROD ; read-out: inhibition ; dose: 100 µM ; result: 0%
COc1ccc(S(=O)(=O)N(CC(O)CN(Cc2ccccc2)C(=O)NC(C)(C)C)CC2CCCC2)cc1 ; organism: HIV-1 ; strain or isolate: IIIB ; cell line: CEM ; read by: p24 ; read-out: EC90 ; result: 1 µM
Cc1ccc(C)n1-c1ccc(C(=O)O)c(O)c1 ; organism: HIV-1 ; strain or isolate: AZT-resistant X4 CLADE B ; cell line: MT-2 ; read by: p24 ; read-out: EC90 ; result: 15.07 µM
O=C1Nc2ccc(F)c(F)c2[C@@](C#CC2CC2)(C(F)(F)F)N1 ; organism: HIV-1 ; changes: RT-K103N V108I ; read-out: fold resistance ; result: 22.2
Cc1cc(C#N)cc(C(=O)c2cc(Cl)ccc2OCC(=O)Nc2ccc(OCCCN3CC=CC3)cc2C)c1 ; organism: HIV-1 ; strain or isolate: HXB2 ; changes: RT-V106A Y181C ; cell line: HeLa + HELA CD4+ ; read by: β-galactosidase ; read-out: fold resistance ; result: ~1
CCC(=O)Nc1ccc(-c2cnc3nc(N)nc(N4CCOCC4)c3n2)cc1 ; organism: HIV ; strain or isolate: IIIB ; cell line: MT-4 ; read-out: EC50 ; result: >100 µM
Cc1cc(C#N)cc(C(=O)c2cc(Cl)ccc2OCC(=O)Nc2ccc(S(N)(=O)=O)cc2C)c1 ; organism: HIV-1 ; strain or isolate: HXB2 ; changes: RT-Y181C ; cell line: HeLa + HELA CD4+ ; read by: β-galactosidase ; read-out: fold resistance ; result: ~1
C=CCOC(=O)N(CCc1ccccc1)C[C@H](O)CN(CC1CCCC1)S(=O)(=O)c1ccc(OC)cc1 ; organism: HIV-1 ; strain or isolate: IIIB ; cell line: CEM ; read by: p24 ; read-out: EC90 ; result: 0.1 µM
O=C(NCCc1ccccc1)Nc1cncc(Cl)n1 ; organism: HIV-2 ; cell line: MT-4 ; read by: cytopathic effect / XTT ; read-out: inhibition ; dose: 1 µg/mL ; result: 8–55%
COc1ccc(-c2cnc3nc(N)nc(N4CCN(C)CC4)c3n2)cc1OC ; organism: HIV ; strain or isolate: IIIB ; cell line: MT-4 ; read-out: EC50 ; result: >100 µM
O=C(NCCc1ccccc1)Nc1nc(C(F)(F)F)cs1 ; organism: HIV-2 ; cell line: MT-4 ; read by: cytopathic effect / XTT ; read-out: inhibition ; dose: 100 µg/mL ; result: 19%
O=C(COc1ccc(Cl)cc1C(=O)c1ccco1)Nc1ccc2cn[nH]c2c1 ; organism: HIV-1 ; strain or isolate: HXB2 ; changes: RT-K103N ; cell line: HeLa + HELA CD4+ ; read by: β-galactosidase ; read-out: fold resistance ; result: ~1
CCOc1ccccc1CCNC(=S)Nc1nccs1 ; organism: HIV-2 ; cell line: MT-4 ; read by: cytopathic effect / XTT ; read-out: inhibition ; dose: 1 µg/mL ; result: 100%
CC(C)(C)NC(=O)N(Cc1ccccc1)CC(O)CN(CC1CCCC1)S(=O)(=O)c1ccccc1 ; organism: HIV-1 ; strain or isolate: IIIB ; cell line: CEM ; read by: p24 ; read-out: EC90 ; result: 1 µM
CCOP(=O)(CC(O)n1cc(-n2ccc(=O)[nH]c2=O)nn1)OCC ; organism: HIV-2 ; strain or isolate: ROD ; read-out: inhibition ; dose: 100 µM ; result: 0%
CCCCN1C(=O)[C@@H](Cc2ccccc2)NC1=S ; organism: HIV-2 ; cell line: MT-4 ; read by: RT activity ; read-out: inhibition ; dose: 1 µg/mL ; result: 1%

4 of the rows above, restated:

| SMILES | organism | strain or isolate | changes | cell line | read by | read-out | dose | result |
|---|---|---|---|---|---|---|---|---|
| O=C(NCCc1ccccc1)Nc1cncc(Cl)n1 | HIV-2 | - | - | MT-4 | cytopathic effect / XTT | inhibition | 1 µg/mL | 8–55% |
| CCOP(=O)(OCC)C(O)Cn1cc(-n2cc(C)c(=O)[nH]c2=O)nn1 | HIV-2 | ROD | - | CEM | - | inhibition | 100 µM | 0% |
| CCOP(=O)(CC(O)n1cc(-n2ccc(=O)[nH]c2=O)nn1)OCC | HIV-2 | ROD | - | - | - | inhibition | 100 µM | 0% |
| COc1ccc(S(=O)(=O)N(CC[C@H](O)Cc2ccccc2C(=O)NC(C)(C)C)CC(C)C)cc1 | HIV-1 | IIIB | - | CEM | p24 | EC90 | - | 1 µM |

Two numbers with a dash give a range or band. Neighbouring rows are from separate reports. An empty or dashed field is not shown. Fold resistance has wild type as its base. Inhibition is in % at the dose shown (toxicity tests: loss of growth or viability).